# Sequence variants of PSTVd stem 3 after infection

Reference: Wu et al. 2024, doi:10.1371/journal.ppat.1012142.

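Three N. benthamiana plants were inoculated with the whole mutant pool. Progeny were sequenced from the inoculated region (day 5), the margin of the inoculated leaf (day 10) and systemic leaves (day 12).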

The pool varies stem 3 of the PSTVd intermediate strain in the pattern GUGGUUCCGNANNCNN; wild type is GUGGUUCCGGAACCGC (upper and lower strand joined, each 5' to 3', the first 8 letters being the upper strand).

Numbers give reads per thousand; 0 = not seen among the reads, higher = more abundant.
Each value is the mean of three plants.
"Pool" is the share in the plasmid pool used as inoculum, on the same scale.
The inoculated region was read from the minus strand, the other sites from the plus strand.
Wild type was 17.3 per thousand in the pool and the most common sequence in every sample (inoculated region 330, 345, 235; leaf margin 794, 766, 816; systemic leaves 830, 792, 869).
Sequences that differ at fixed positions probably stem from PCR or sequencing errors, and defective variants can be carried along by functional ones.
With 27,691-54,225 reads a sample, very low values are single reads.

sequence,pool,inoculated region,leaf margin,systemic leaves
GUGGUUCAGAAGUCUC,0.0154,0.00888,0,0
GUGGUUCCAGAACCGC,0.0923,0.163,0.116,0.235
GUGGUUCCGAAAACCC,1.06,0.568,0,0.0372
GUGGUUCCGAAAACCG,0.431,0.215,0,0
GUGGUUCCGAAACCUU,1.12,0.798,0.123,0
GUGGUUCCGAAAGCAA,0.646,0.799,0.108,0
GUGGUUCCGAAAGCCG,0.985,0.346,0,0
GUGGUUCCGAAAGCCU,0.816,0.695,0.0937,0
GUGGUUCCGAAAUCUC,1.18,0.854,0,0.0497
GUGGUUCCGAACACUA,0.754,0.237,0.0120,0
GUGGUUCCGAACGCUA,0.862,0.401,0.0453,0.0516
GUGGUUCCGAACUCCG,0.862,0.704,0.0120,0
GUGGUUCCGAAGGCAG,0.708,0.765,0.414,0
GUGGUUCCGAAGGCAU,0.708,0.684,1.14,1.11
GUGGUUCCGAAUACCA,0.769,0.297,0.0226,0
GUGGUUCCGAAUCCCA,1.62,1.08,0.156,0.0764
GUGGUUCCGAAUUCUA,2.03,1.45,0.0106,0.0496
GUGGUUCCGACUAAGU,0.677,0.757,0.0722,0
GUGGUUCCGCAAGCUG,1.34,0.536,0.0241,0
GUGGUUCCGCAAUCCU,0.970,0.835,0.612,0
GUGGUUCCGCACUCUC,1.54,0.593,0.0427,0.0186
GUGGUUCCGCAGACAC,0.939,0.777,0,0
GUGGUUCCGCAGACGG,0.846,0.351,0.0332,0
GUGGUUCCGCAUACGA,1.25,0.527,0.0521,0
GUGGUUCCGCAUCCGA,0.769,0.260,0.0120,0.0310
GUGGUUCCGGAAACGA,0.893,0.398,0.00944,0.00621
GUGGUUCCGGAACCGU,0.923,33.7,16.2,15.1
GUGGUUCCGGAAUCUU,0.908,0.789,0.0215,0
GUGGUUCCGGACUCCU,0.893,1.19,0,0.00811
GUGGUUCCGGAUACAC,0.769,0.375,0.0120,0
GUGGUUCCGGAUCCGU,1.39,0.476,0.0120,0.0186
GUGGUUCCGGAUUCGC,0.985,0.267,0.0321,0
GUGGUUCCGGAUUCUC,0.954,0.881,0.237,0.0186
GUGGUUCCGUAAUCCG,0.769,0.296,0.104,0
GUGGUUCCGUACACAU,1.26,0.743,0.00944,0
GUGGUUCCGUACACGA,0.754,0.314,0,0
GUGGUUCCGUAGCCCU,0.785,0.752,0.106,0
GUGGUUCCGUAGCCGC,0.954,0.310,0.00944,0

Excerpt, the final 2 entries:

sequence	pool	inoculated region	leaf margin	systemic leaves
GUGGUUCCGUAGCCCU	0.785	0.752	0.106	0
GUGGUUCCGUAGCCGC	0.954	0.310	0.00944	0